Assay results as given in the supplement of paper PMC10646978.
± gives the standard deviation. The entries are a selection whose mix differs from that of the whole data set.

Key:
Settings in all cases: modulator concentration 10 µM
[1] = test system: RAW-Dual (murine macrophage reporter line); assay: NF-kB reporter (SEAP) activity fold change vs agonist alone; higher = enhanced NF-kB activity
In short: (§1)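 RAW-Dual murine macrophage reporter cells were seeded at 50 000 per well in 384-well plates and pre-incubated 1 hour at 37 °C with compound pin-transferred to 10 μM final. After 1 hour, a PRR agonist was added and cells incubated overnight. Supernatant NF-κB (SEAP, QUANTI-Blue, 620 nm absorbance) and IRF (Lucia luciferase, QUANTI-Luc, luminescence) signals were divided by the mean agonist-only control on the same plate to give fold change. Two replicate plates were averaged, with errors by propagation.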

[2] = test system: RAW-Dual (murine macrophage reporter line); assay: IRF reporter (Lucia luciferase) activity fold change vs agonist alone; higher = enhanced IRF activity
In short: as §1

[3] = test system: RAW-Dual (murine macrophage reporter line); assay: viability score (confluency relative to resting cells, overnight) (fraction); higher = more viable, active = viable (0.7 or more)
In short: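 Overnight exposure to 10 μM final compound was carried out on RAW-Dual macrophages in 384-well plates. IncuCyte software generated two confluency masks over all wells imaged with IncuCyte. The viability score gives confluency in relation to resting cells. A compound met the cutoff if each mask exceeded 70% of resting cells.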

Q: How did the NF-kB reporter ([1]; agonist: CpG ODN 1826 0.5 ug/mL) turn out when `O=C(CBr)c1ccc(Cl)cc1` was run?
A: 1.78 ± 0.2

Q: What about the NF-kB reporter ([1]; agonist: LPS 0.1 ug/mL) of the same compound?
A: 1.22 ± 0.059

Q: And the NF-kB reporter ([1]; agonist: MPLA […])?
A: 2.17 ± 0.069

Q: And the IRF reporter ([2]; agonist: 3'3'-cGAMP 10 ug/mL)?
A: 1 ± 0.065

Q: And the IRF reporter ([2]; agonist: LPS 0.1 ug/mL)?
A: 1.08 ± 0.037

Q: What about the IRF reporter ([2]; agonist: MPLA […]) of the same compound?
A: 1.6 ± 0.19

Q: And the viability score [3]?
A: active: 0.976
